Assay results taken from publication PMC8779843.

Molecular target: Recombinant human ACE2 protein (a.a. 18Q-740S) (human) (UniProt Q9BYF1)
Test: BLI; biotinylated ACE2 loaded at 30 µg/mL on streptavidin pins, Octet K2; BLI buffer PBS, 0.1% tween-20; mRBD or pRBD added at one concentration, 30 μg/mL (285 nM); association 180 s, dissociation 320 s

“recombinant receptor-binding domain of protein S SARS-CoV-2 expressed in CHO cells (mRBD) (from UniProt P0DTC2 308-542) (domain or fragment; other documents disagree on this pair)” showed a Kd of 0.0582 µM.
